The values that follow are results of earlier work, collected in paper PMC4801485.

In the data set the target is HIV capsid protein capsid domain (Human immunodeficiency virus 1) (UniProt O93182).

What is called Kd is the concentration at which binding is half-saturated. With Cyclophilin A (from UniProt P62937), the Kd is 16 µM.
